This note sets out measurements from patent publication US7604804 (dated 2009).

The series in a line: general procedure: Fmoc solid-phase peptide synthesis; Fmoc-PAL-PEG-PS resin; HATU (DIPEA). To be noted: oxidative folding step.

As for CD4M9-Cys-Glutathione, the oxidative folding yield was 75%.
